Measurements reported in article PMC8308780, “Antiviral Activity of Isoquinolone Derivatives against Influenza Viruses and Their Cytotoxicity” (Pharmaceuticals, 2021).

Assays:
Settings in all cases: ratio CC50 / EC50
[1] = test system: A/Hong Kong/8/68 (H3N2; HK); assay type: cell-based, influenza A virus
[2] = test system: A/Puerto Rico/8/34 (H1N1; PR8); assay type: cell-based, influenza A virus
B/Lee/40 (Lee) = assay type: cell-based, influenza B virus

Compound | S.I. HK [1] | S.I. PR8 [2] | S.I. Lee (B/Lee/40 (Lee))
NC12CC3CC(CC(C3)C1)C2 [AMT, amantadine hydrochloride, reference compound] | > 187.5 |  | 
CCc1cc2c(cc1-c1cc3ccc(OC)c(OC)c3c(=O)n1C)OCO2 [Compound 1, 3-(6-ethylbenzo[d][1,3]dioxol-5-yl)-7,8-dimethoxy-2-methylisoquinolin-1(2H)] | 130.0 | 195.0 | 65.0
O=c1[nH]c(-c2ccccc2)cc2ccccc12 [Compound 2, 3-phenylisoquinolone] | > 4.1 | > 6.7 | > 3.4
O=c1[nH]c(-c2ccccc2O)cc2ccccc12 [Compound 3] | > 2.9 | > 5.3 | 
O=c1[nH]c(-c2ccccc2CO)cc2ccccc12 [Compound 4] | > 3.7 | > 5.7 | > 17.4
COc1ccccc1-c1cc2ccccc2c(=O)[nH]1 [Compound 5] |  |  | 86.0
Cc1cccc(-c2cc3c(N(C)C)cccc3c(=O)[nH]2)c1 [Compound 6] |  |  | > 5.1
COc1ccc(-c2cc3cc(C)ccc3c(=O)[nH]2)cc1OC [Compound 11] | > 3.2 | > 9.3 | > 4.0
COc1ccc(-c2[nH]c(=O)c3ccc(C)cc3c2Br)cc1OC [Compound 13] | > 1.7 | > 1.7 | 
CCc1cc2c(cc1-c1cc3ccc(OC)c(O)c3c(=O)n1C)OCO2 [Compound 17] | 18.8 | 3.0 | 
C=Cc1cc2c(cc1-c1cc3ccc(OC)c(OC)c3c(=O)n1C)OCO2 [Compound 18] | 28.8 | 14.4 | 36.6
COc1ccc2cc(-c3cc4c(cc3CCO)OCO4)n(C)c(=O)c2c1OC [Compound 19] | > 6.5 | > 5.0 | > 13.5
COc1ccc2cc(-c3cc4c(cc3CCO)OCO4)[nH]c(=O)c2c1OC [Compound 20] | > 25.2 | > 10.1 | > 19.2
COc1cc2cc(-c3ccccc3)[nH]c(=O)c2cc1OC [Compound 21, 6,7-dimethoxy-3-phenylisoquinolone] | > 27.5 | > 16.2 | > 30.3
CCC(CC)O[C@@H]1C=C(C(=O)O)C[C@H](N)[C@H]1NC(C)=O [OSV-C, oseltamivir carboxylate, reference compound] | > 10,000 | > 6000 | 
NC(=O)c1ncn([C@@H]2O[C@H](CO)[C@@H](O)[C@H]2O)n1 [RBV, ribavirin, reference compound] | 43.8 (>19.7) | 25.0 (>16.2) | 

Structures can show the parent of a compound that is named as a salt.
